The text below walks through data of patent US5672586A (Bio-Mega/Boehringer Ingelheim Research, Inc., priority 1995, dated 1997).

The data set is described as follows: general procedure: solution-phase peptide synthesis.

In the case of “(3-Cyclohexyl-2(R)-methyl-1-oxopropyl)-(N--Me) Val-Tbg-CH2 --(R)--CH(CH2 C(O)CMe3)--C (O)-Asp(cyPn)-NH--(R)--CH(Et)CMe3”, the step yield (late stage modification step) stood at 97%. Take “Boc-(N-Me) Val-Tbg-CH2 --(R)--CH(CH2 C(O)CMe3)C(O)-Asp(cyPn)-(Bzl)--NH--(R)--CH (Et)CMe3”: the step yield (coupling step) was 89%.
